In patent publication US9625458B2, “Biosensor” (priority 2002, dated 2017):

Test: Fluorescence emission spectra without and with saturating ligand (wavelength shift, ΔIstd, ΔRmax)
Details: for λmax,apo (nm): absence of ligand; for ΔIstd: standard intensity change; for ΔIstd / ΔRmax: unbound vs ligand-saturated; for ΔRmax: standard ratiometric change
Summary of the method: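 Emission spectra of bPBP–fluorophore conjugates (50–1000 nM protein, 25 °C, stirred) recorded without and with saturating ligand, using fluorophore-specific excitation. Wavelength shift, ΔIstd (intensity change at the mid-point wavelength) and ΔRmax (maximal ratiometric change over enumerated band pairs, 2 nm steps, 10 nm width) derived.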

[1] = emission maximum, saturating ligand (ligand column)
[2] = wavelength of emission maximum, saturating ligand

| Molecule | λmax,apo (nm) (emission maximum) | λmax,sat (nm) [1] | ΔIstd | ΔRmax | λmax,apo (nm) (wavelength of emission maximum) | λmax,sat (nm) [2] |
| --- | --- | --- | --- | --- | --- | --- |
| arabinose BP L253C NBD (conjugate, UniProt P02924 24-329, looked up, variant L253C, NBD label) L-arabinose-binding …: ENLKLGFLVKQPEEPWFQTEWKFADKAGKDLGFEVIKIAVPDGEKTLNAIDSLAASGAKGFVICTPDPKLGSAIVAKARGYDMKVIAVDDQFVNAKGKPMDTVPLVMMAATKIGERQGQELYKEMQKRGWDVKESAVMAITANELDTARRRTTGSMDALKAAGFPEKQIYQVPTKSNDIPGAFDAANSMLVQHPEVKHWLIVGMNDSTVLGGVRATEGQGFKAADIIGIGINGVDAVSELSKAQATGFYGSLCPSPDVHGYKSSEMLYNWVAKDVEPPKFTEVTDVVLITRDNFKEELEKKGLGGK | 539 | 539 | 0.41 | 1.66 | – | – |
| arabinose BP L298C Acrylodan (conjugate, UniProt P02924 24-329, looked up, variant L298C, acrylodan label) L-arabinose-binding …: ENLKLGFLVKQPEEPWFQTEWKFADKAGKDLGFEVIKIAVPDGEKTLNAIDSLAASGAKGFVICTPDPKLGSAIVAKARGYDMKVIAVDDQFVNAKGKPMDTVPLVMMAATKIGERQGQELYKEMQKRGWDVKESAVMAITANELDTARRRTTGSMDALKAAGFPEKQIYQVPTKSNDIPGAFDAANSMLVQHPEVKHWLIVGMNDSTVLGGVRATEGQGFKAADIIGIGINGVDAVSELSKAQATGFYGSLLPSPDVHGYKSSEMLYNWVAKDVEPPKFTEVTDVVLITRDNFKEECEKKGLGGK | 499 | 500 | 0.07 | 1.77 | – | – |
| arabinose BP L298C JPW4039 (conjugate, UniProt P02924 24-329, looked up, variant L298C, JPW4039 dye label) L-arabinose-binding …: ENLKLGFLVKQPEEPWFQTEWKFADKAGKDLGFEVIKIAVPDGEKTLNAIDSLAASGAKGFVICTPDPKLGSAIVAKARGYDMKVIAVDDQFVNAKGKPMDTVPLVMMAATKIGERQGQELYKEMQKRGWDVKESAVMAITANELDTARRRTTGSMDALKAAGFPEKQIYQVPTKSNDIPGAFDAANSMLVQHPEVKHWLIVGMNDSTVLGGVRATEGQGFKAADIIGIGINGVDAVSELSKAQATGFYGSLLPSPDVHGYKSSEMLYNWVAKDVEPPKFTEVTDVVLITRDNFKEECEKKGLGGK | 591 | 591 | 0.42 | 0.65 | – | – |
| phosphate BP A225C JPW4039 (conjugate, UniProt P0AG82 26-346, looked up, variant A225C, JPW4039 label) Phosphate-binding protein PstS: EASLTGAGATFPAPVYAKWADTYQKETGNKVNYQGIGSSGGVKQIIANTVDFGASDAPLSDEKLAQEGLFQFPTVIGGVVLAVNIPGLKSGELVLDGKTLGDIYLGKIKKWDDEAIAKLNPGLKLPSQNIAVVRRADGSGTSFVFTSYLAKVNEEWKNNVGTGSTVKWPIGLGGKGNDGIAAFVQRLPGAIGYVEYAYAKQNNLAYTKLISADGKPVSPTEENFCNAAKGADWSKTFAQDLTNQKGEDAWPITSTTFILIHKDQKKPEQGTEVLKFFDWAYKTGAKQANDLDYASLPDSVVEQVRAAWKTNIKDSSGKPLY | – | – | – | – | 591 | 601 |
| phosphate BP N226C JPW4039 (conjugate, UniProt P0AG82 26-346, looked up, variant N226C, JPW4039 dye conjugate) Phosphate-binding protein PstS: EASLTGAGATFPAPVYAKWADTYQKETGNKVNYQGIGSSGGVKQIIANTVDFGASDAPLSDEKLAQEGLFQFPTVIGGVVLAVNIPGLKSGELVLDGKTLGDIYLGKIKKWDDEAIAKLNPGLKLPSQNIAVVRRADGSGTSFVFTSYLAKVNEEWKNNVGTGSTVKWPIGLGGKGNDGIAAFVQRLPGAIGYVEYAYAKQNNLAYTKLISADGKPVSPTEENFACAAKGADWSKTFAQDLTNQKGEDAWPITSTTFILIHKDQKKPEQGTEVLKFFDWAYKTGAKQANDLDYASLPDSVVEQVRAAWKTNIKDSSGKPLY | – | – | – | – | 595 | 571 |
| phosphate BP A225C Acrylodan (conjugate, UniProt P0AG82 26-346, looked up, variant A225C, acrylodan conjugate) Phosphate-binding protein PstS: EASLTGAGATFPAPVYAKWADTYQKETGNKVNYQGIGSSGGVKQIIANTVDFGASDAPLSDEKLAQEGLFQFPTVIGGVVLAVNIPGLKSGELVLDGKTLGDIYLGKIKKWDDEAIAKLNPGLKLPSQNIAVVRRADGSGTSFVFTSYLAKVNEEWKNNVGTGSTVKWPIGLGGKGNDGIAAFVQRLPGAIGYVEYAYAKQNNLAYTKLISADGKPVSPTEENFCNAAKGADWSKTFAQDLTNQKGEDAWPITSTTFILIHKDQKKPEQGTEVLKFFDWAYKTGAKQANDLDYASLPDSVVEQVRAAWKTNIKDSSGKPLY | – | – | – | – | 503 | 502 |
| phosphate BP N223C Fluorescein (conjugate, UniProt P0AG82 26-346, looked up, variant N223C, fluorescein conjugate) Phosphate-binding protein PstS: EASLTGAGATFPAPVYAKWADTYQKETGNKVNYQGIGSSGGVKQIIANTVDFGASDAPLSDEKLAQEGLFQFPTVIGGVVLAVNIPGLKSGELVLDGKTLGDIYLGKIKKWDDEAIAKLNPGLKLPSQNIAVVRRADGSGTSFVFTSYLAKVNEEWKNNVGTGSTVKWPIGLGGKGNDGIAAFVQRLPGAIGYVEYAYAKQNNLAYTKLISADGKPVSPTEECFANAAKGADWSKTFAQDLTNQKGEDAWPITSTTFILIHKDQKKPEQGTEVLKFFDWAYKTGAKQANDLDYASLPDSVVEQVRAAWKTNIKDSSGKPLY | – | – | – | – | 519 | 519 |
| phosphate BP N226C JPW4042 (conjugate, UniProt P0AG82 26-346, looked up, variant N226C, JPW4042 dye conjugate) Phosphate-binding protein PstS: EASLTGAGATFPAPVYAKWADTYQKETGNKVNYQGIGSSGGVKQIIANTVDFGASDAPLSDEKLAQEGLFQFPTVIGGVVLAVNIPGLKSGELVLDGKTLGDIYLGKIKKWDDEAIAKLNPGLKLPSQNIAVVRRADGSGTSFVFTSYLAKVNEEWKNNVGTGSTVKWPIGLGGKGNDGIAAFVQRLPGAIGYVEYAYAKQNNLAYTKLISADGKPVSPTEENFACAAKGADWSKTFAQDLTNQKGEDAWPITSTTFILIHKDQKKPEQGTEVLKFFDWAYKTGAKQANDLDYASLPDSVVEQVRAAWKTNIKDSSGKPLY | – | – | – | – | 673 | 651 |
| phosphate BP A225C NBD (conjugate, UniProt P0AG82 26-346, looked up, variant A225C, NBD conjugate) Phosphate-binding protein PstS: EASLTGAGATFPAPVYAKWADTYQKETGNKVNYQGIGSSGGVKQIIANTVDFGASDAPLSDEKLAQEGLFQFPTVIGGVVLAVNIPGLKSGELVLDGKTLGDIYLGKIKKWDDEAIAKLNPGLKLPSQNIAVVRRADGSGTSFVFTSYLAKVNEEWKNNVGTGSTVKWPIGLGGKGNDGIAAFVQRLPGAIGYVEYAYAKQNNLAYTKLISADGKPVSPTEENFCNAAKGADWSKTFAQDLTNQKGEDAWPITSTTFILIHKDQKKPEQGTEVLKFFDWAYKTGAKQANDLDYASLPDSVVEQVRAAWKTNIKDSSGKPLY | – | – | – | – | 544 | 554 |
| phosphate BP A225C JPW4042 (conjugate, UniProt P0AG82 26-346, looked up, variant A225C, JPW4042 dye conjugate) Phosphate-binding protein PstS: EASLTGAGATFPAPVYAKWADTYQKETGNKVNYQGIGSSGGVKQIIANTVDFGASDAPLSDEKLAQEGLFQFPTVIGGVVLAVNIPGLKSGELVLDGKTLGDIYLGKIKKWDDEAIAKLNPGLKLPSQNIAVVRRADGSGTSFVFTSYLAKVNEEWKNNVGTGSTVKWPIGLGGKGNDGIAAFVQRLPGAIGYVEYAYAKQNNLAYTKLISADGKPVSPTEENFCNAAKGADWSKTFAQDLTNQKGEDAWPITSTTFILIHKDQKKPEQGTEVLKFFDWAYKTGAKQANDLDYASLPDSVVEQVRAAWKTNIKDSSGKPLY | – | – | – | – | 615 | 628 |
| phosphate BP A225C Fluorescein (conjugate, UniProt P0AG82 26-346, looked up, variant A225C, fluorescein label) Phosphate-binding protein PstS: EASLTGAGATFPAPVYAKWADTYQKETGNKVNYQGIGSSGGVKQIIANTVDFGASDAPLSDEKLAQEGLFQFPTVIGGVVLAVNIPGLKSGELVLDGKTLGDIYLGKIKKWDDEAIAKLNPGLKLPSQNIAVVRRADGSGTSFVFTSYLAKVNEEWKNNVGTGSTVKWPIGLGGKGNDGIAAFVQRLPGAIGYVEYAYAKQNNLAYTKLISADGKPVSPTEENFCNAAKGADWSKTFAQDLTNQKGEDAWPITSTTFILIHKDQKKPEQGTEVLKFFDWAYKTGAKQANDLDYASLPDSVVEQVRAAWKTNIKDSSGKPLY | – | – | – | – | 522 | 521 |
| phosphate BP A225C JPW4045 (conjugate, UniProt P0AG82 26-346, looked up, variant A225C, JPW4045 label) Phosphate-binding protein PstS: EASLTGAGATFPAPVYAKWADTYQKETGNKVNYQGIGSSGGVKQIIANTVDFGASDAPLSDEKLAQEGLFQFPTVIGGVVLAVNIPGLKSGELVLDGKTLGDIYLGKIKKWDDEAIAKLNPGLKLPSQNIAVVRRADGSGTSFVFTSYLAKVNEEWKNNVGTGSTVKWPIGLGGKGNDGIAAFVQRLPGAIGYVEYAYAKQNNLAYTKLISADGKPVSPTEENFCNAAKGADWSKTFAQDLTNQKGEDAWPITSTTFILIHKDQKKPEQGTEVLKFFDWAYKTGAKQANDLDYASLPDSVVEQVRAAWKTNIKDSSGKPLY | – | – | – | – | 621 | 633 |
| phosphate BP S39C JPW4039 (conjugate, UniProt P0AG82 26-346, looked up, variant S39C, JPW4039 dye conjugate) Phosphate-binding protein PstS: EASLTGAGATFPAPVYAKWADTYQKETGNKVNYQGIGSCGGVKQIIANTVDFGASDAPLSDEKLAQEGLFQFPTVIGGVVLAVNIPGLKSGELVLDGKTLGDIYLGKIKKWDDEAIAKLNPGLKLPSQNIAVVRRADGSGTSFVFTSYLAKVNEEWKNNVGTGSTVKWPIGLGGKGNDGIAAFVQRLPGAIGYVEYAYAKQNNLAYTKLISADGKPVSPTEENFANAAKGADWSKTFAQDLTNQKGEDAWPITSTTFILIHKDQKKPEQGTEVLKFFDWAYKTGAKQANDLDYASLPDSVVEQVRAAWKTNIKDSSGKPLY | – | – | – | – | 597 | 551 |
| phosphate BP N226C JPW4045 (conjugate, UniProt P0AG82 26-346, looked up, variant N226C, JPW4045 dye conjugate) Phosphate-binding protein PstS: EASLTGAGATFPAPVYAKWADTYQKETGNKVNYQGIGSSGGVKQIIANTVDFGASDAPLSDEKLAQEGLFQFPTVIGGVVLAVNIPGLKSGELVLDGKTLGDIYLGKIKKWDDEAIAKLNPGLKLPSQNIAVVRRADGSGTSFVFTSYLAKVNEEWKNNVGTGSTVKWPIGLGGKGNDGIAAFVQRLPGAIGYVEYAYAKQNNLAYTKLISADGKPVSPTEENFACAAKGADWSKTFAQDLTNQKGEDAWPITSTTFILIHKDQKKPEQGTEVLKFFDWAYKTGAKQANDLDYASLPDSVVEQVRAAWKTNIKDSSGKPLY | – | – | – | – | 675 | 638 |
